In data set [1] the test system is endothelial monolayer of the in vitro BBB. Briefly: Trans-endothelial electrical resistance (TEER) of in vitro BBB. It counts as cell-based, human. To be noted: SP16 1 and 100 μg/mL on apical side of the BBB, up to 48 h; values remained constant. Here is the method: Human primary endothelial cells were grown to confluence on the upper (luminal) surface of a 3 μm transwell membrane insert and astrocytes and pericytes were grown to confluency on the bottom (apical) surface of the inserts close to the endothelial cells to simulate the structure of the BBB. Transwell inserts were submerged in their respective media, as described previously. The BBB was cultured for approximately 5 days and the inserts were transferred into a 24-well plate containing both HIV-infected and non-infected microglia seeded at the bottom of each well.
Electrical resistance across the endothelial monolayer formed in the transwell of the in vitro BBB was measured using a Millicell ERS microelectrode from Millipore (Bedford, MA, USA) as performed previously. The resulting TEER values were calculated minus the blank media control.

Data set [2] relates to primary human astrocytes. Briefly: ELISA of inflammatory molecules in astrocyte supernatant. Conditions: for reduction of HIV-induced MCP-1: 1 μg/mL SP16. The data set is classed as cell-based. In general terms: ELISA stands for enzyme-linked immunosorbent assay.
The subject of data set [3] is HIV-1SF162. Briefly: HIV p24 gag protein ELISA in astrocytes. Conditions: HIV-infected astrocytes; 25 μg/mL SP16; 6 and 12 h. It counts as cell-based.
The subject of data set [4] is primary endothelial cells. Put plainly: ELISA of inflammatory molecules in endothelial cell supernatant. It counts as cell-based, human. To be noted: 12 h.
Data set [5] concerns EcoHIV-infected mouse brain. Put plainly: Inflammatory molecules in brain homogenates of EcoHIV-infected mice, ELISA. The data set is classed as in vivo, C57BL/6J mice. Conditions: EcoHIV-infected male mice; SP16 10 μg/kg intranasal every other day added to daily IP cART; brain homogenate; N = 3–5/treatment.
Data set [6] is described as follows: Bioavailability of SP16 in mouse brain after intranasal delivery, LC/MS-MS. It counts as in vivo. Conditions: adult C57BL/6J mice, 10 µg/kg intranasal. An excerpt: C57BL/6J mice (Jackson Laboratory, Bay Harbor, ME, USA) were bred in the animal facility at Florida International University. Mice were placed 3–5 per cage and maintained in a controlled temperature and humidity room. The animals were cared for in accordance with the Principles of Animal Care outlined by the National Institutes of Health and approved by the Institutional Animal Care and Use Committee of Florida International University. Protocol Approval: IACUC-21-007-CR01. The EcoHIV-NDK plasmid used was provided by Dr. David Volsky at Mount Sinai school of medicine. The plasmid was transfected in HEK293T cells to generate EcoHIV stocks as previously described. For the in vivo experiments, male mice between the ages of 4–6 months were administrated 1 mL of either saline or 1 × 10^6 pg p24 units of EcoHIV by intraperitoneal (IP) cavity. After 3–4 weeks, animals received cART daily via IP administration. The cART regimen consisted of Emtricitabine, Ritonavir, and Atazanavir at a concentration of 100 mg/kg each, based on previously published literature by others. […] Bioavailability of SP16 in the brain was monitored with LC-MS/MS using 703 (triple charged) parent ion and its two daughter ions 129.1 and 84.1. […]
acetonitrile containing Oxazepam-D5 and subsequently quantified by high-performance LC/MS-
MS. About 125 nmol/L of SP16 (or 40% of the original concentration) was detected in brain […]

Where [7] appears, read: astrocytes, 100 µg/mL SP16, 12 h, without LRP-1 silencing.
Setting [8] is: HIV-infected endothelial cells, SP16 25 and 250 μg/mL.
The mark [9] stands for this setting: endothelial cells, 100 µg/mL SP16, without LRP-1 silencing.

The record followed here is PMC9954444, “SERPIN-Derived Small Peptide (SP16) as a Potential Therapeutic Agent against HIV-Induced Inflammatory Molecules and Viral Replication in Cells of the Central Nervous System” (Cells, 2023).

As to `CCCC[C@H](NC(=O)[C@H](CC(C)C)NC(=O)[C@H](Cc1ccccc1)NC(=O)[C@@H](NC(=O)[C@H](Cc1ccccc1)NC(=O)[C@@H]1CCCN1C(=O)[C@H](CCCCN)NC(=O)[C@H](CC(N)=O)NC(=O)[C@H](Cc1ccccc1)NC(=O)[C@H](CCCCN)NC(=O)[C@@H](NC(C)=O)C(C)C)C(C)C)C(=O)N[C@H](C(=O)N[C@@H](CCC(=O)O)C(=O)N[C@@H](CCC(N)=O)C(=O)N[C@@H](CC(N)=O)C(=O)N[C@H](C(=O)N[C@@H](CCCCN)C(N)=O)[C@@H](C)O)[C@@H](C)CC` [SP16], the TEER value entry in data set [1] is given as “about 300 Ωxcm^2”. Also, the “reduction of HIV-induced MCP-1” value in data set [2] (HIV-infected astrocytes, 6 h) was found to be 65%. The “reduction of HIV-induced MCP-1” value in data set [2] (HIV-infected astrocytes, 12 h) was found to be 63%. Moreover, in data set [2] (HIV-infected astrocytes, 12 h, SP16 at 1 μg/mL), the “HIV-induced IL-6” value was “Attenuation”. Besides, in data set [2] (HIV-infected astrocytes, 12 h, SP16 at 25 μg/mL), the “HIV-induced IL-8” value was “Attenuation”. For the same compound, in data set [2] (setting [7]), the “secreted levels of IL-6” value is recorded as “significantly decreased”, the “secreted levels of IL-8” value is listed as “significantly decreased” and the “secreted levels of MCP-1” value is on record as “significantly decreased”. Moreover, the “secretion levels of MCP-1, IL-6 and IL-8 after silencing the LRP-1 gene” value in data set [2] (astrocytes, siRNA against LRP-1, 48 h post-transfection, SP16 100 µg/mL, 12 h) is listed as “reversal”. Further, the “attenuation of secretion of MCP-1” value in data set [2] (primary human astrocytes, concentration-dependent, 6 and 12 h post-treatment, ELISA) is given as “more than 90%”. The “reduction of viral titer, HIV p24 gag protein” value in data set [3] is listed as “about 50%”. In data set [4] (setting [8]), the “decrease in secretion of IL-8” value is recorded as “about 15%” and the “decrease in secretion of MCP-1” value is given as “about 40%”. Further, in data set [4] (setting [9]), the “secreted levels of IL-6” value was “significant decrease” and the “secreted levels of IL-8” value was “significant decrease”. In addition, in data set [4] (endothelial cells, siRNA against LRP-1, 48 h post-transfection, SP16 25 and 100 µg/mL), the “secretion of IL-6 and IL-8 after silencing the LRP-1 gene” value is reported as “reversal”. Also, in data set [5], the “decrease in MCP-1 as compared to cART alone” value stood at 48% and the “decrease in RANTES as compared to cART alone” value worked out at 35%. Besides, the “SP16 in brain homogenates as share of the original concentration” value in data set [6] (24 hours, N=2) was about 40%. Moreover, the level at time molar at 24 h in data set [6] (mouse, in vivo, inhaled or intranasal, 10 ug/kg, 20 μL in each nostril, acetonitrile extraction, N=2, read-out: SP16 detected in brain homogenates) is about 125 nM.
